Laboratory results taken from ChEMBL document CHEMBL1124867, “Synthesis and antiviral activity of monofluoro and difluoro analogues of pyrimidine deoxyribonucleosides against human immunodeficiency virus (HIV-1)” (J Med Chem, 1990).

Assay: Selectivity index of IC50 and CD50 of the compound
Format: functional
For `Nc1ccn([C@@H]2O[C@H](CO)C=C2F)c(=O)n1`, the Selectivity index was 3 SI. In the case of `Cc1cn([C@@H]2O[C@H](CO)C=C2F)c(=O)[nH]c1=O`, the Selectivity index is reported as over 10 SI. In the case of `Nc1ccn(C2OC(CO)C(F)C2F)c(=O)n1` (stereo unspecified), the Selectivity index is reported as over 10 SI. Compound `Cc1cn([C@H]2C[C@H](N=[N+]=[N-])[C@@H](CO)O2)c(=O)[nH]c1=O` [ZIDOVUDINE] has a Selectivity index of over 1.2 SI. Work on `Nc1ccn([C@@H]2O[C@H](CO)C[C@@H]2F)c(=O)n1` yielded a Selectivity index of 7.1 SI. In the case of `Nc1ccn([C@H]2CC[C@@H](CO)O2)c(=O)n1` [ZALCITABINE], the Selectivity index is reported as 8 SI.
